# Measurements reported in PubChem BioAssay AID504761 (Drosophila RNAi Screening Center, 2011).
# Aim: 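Genome-wide fly cell screen for genes dengue virus requires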 (primary screen)
# System: D.Mel-2 cells from Drosophila
# Reagent: long dsRNA against Drosophila genes
# Challenge: infection with dengue virus type 2; dose and infection time not stated
# Measurement: 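Cells stained for dengue envelope protein and imaged; percent of infected cells per well on duplicate plates, ranked by infection, with stained nuclei counted for cell number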
# Reading the numbers: infection score: higher = more virus-infected cells; cell count: higher = more cells in the well
# Call rule: 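Very low infection ranking in both replicate wells (chance probability at most 0.065), then a retest showing infection dropped 1.5-fold or more at p below 0.05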
# Calls: active = confirmed: knock-down lowers infection; inactive = not picked or not confirmed
# The screen tested about 22,000 reagents; shown is an unselected part of those with a known target gene and a result. Over the whole deposit, 116 (0.52%) are marked active. 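Calls depend on retest data that are not deposited; infection was ranked per plate without normalising between plates; the unit of the infection score is not given.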 Raw values vary from plate to plate and are shown uncorrected. Entries without a mark were called inactive. Reagents against one gene are numbered here. Further read-outs or replicates are left out here. Not given: the amount of reagent, the time to read-out.
gene,reagent no.,"infection score, replicate 1","infection score, replicate 2","cell count, replicate 1"
naz (nazgul),1,1.73,2.44,6286
naz (nazgul),2,2.26,0.59,6905
Uck (Uridine-cytidine kinase),1,1.88,1.13,6700
CG32221,1,5.43,1.89,5989
dlp (dally-like),1,2.65,4.14,6072
dlp (dally-like),2,0.73,2.41,6442
Cypl (Cyclophilin-like),1,3.34,1.57,5805
Cypl (Cyclophilin-like),2,3.76,1.07,6140
Zmynd10 (Zinc finger MYND-type containing 10),1,0.69,2.29,5798
Zmynd10 (Zinc finger MYND-type containing 10),2,20.5,11.3,6239
PH4alphaSG1 (prolyl-4-hydroxylase-alpha SG1),1,3.59,10.7,1169
Ir10a (Ionotropic receptor 10a),1,0.63,3.11,6355
Ir10a (Ionotropic receptor 10a),2,,10.9,516
Ir10a (Ionotropic receptor 10a),3,7.01,8.23,6109
CG33467,1,6.21,5.98,6119
CG33467,2,4.9,4.83,6667
CG13244,1,5.67,14.9,5574
CG31269,1,7.99,4.27,6279
CG31269,2,26.2,23.2,5431
Cp36 (Chorion protein 36),1,1.59,1.23,6608
Cp36 (Chorion protein 36),2,7.39,4.18,6917
CG33299,1,5.21,0.42,6045
CG30110,1,2.2,1.23,5272
CG13527,1,12.2,21.6,2572
Skeletor (retired record),1,5.41,,4030
Skeletor (retired record),2,13.2,5.15,6423
Coop (Corepressor of Pangolin),1,10.9,13.2,6259
Coop (Corepressor of Pangolin),2,2.45,11.7,6415
pyd (polychaetoid),1,6.37,10.4,6265
pyd (polychaetoid),2,1.15,1.2,6503
pyd (polychaetoid),3,9.16,8.23,5995
pyd (polychaetoid),4,20.2,16.8,4086
pyd (polychaetoid),5,10.4,11,5681
pyd (polychaetoid),6,1.18,1.22,6084
pyd (polychaetoid),7,4.7,2.43,6168
Jon65Aiii (Jonah 65Aiii),1,5.62,5.84,6423
Jon65Aiii (Jonah 65Aiii),2,3.27,5.65,5848
CG10841,1,8.21,7.59,5773
CG10841,2,6.24,15.2,1025
asl (asterless),1,2.88,15.4,6900
sro (shroud),1,3.56,10.4,4044
sro (shroud),2,8.17,31,6742
fok (fledgling of Klp38B),1,12.1,3.71,5920
fok (fledgling of Klp38B),2,3.97,1.3,5821
hpRNA:CR32207 (hairpin RNA:CR32207),1,5.45,1.3,5853
CG17977,1,2.57,9.59,6490
Fib (Fibrillarin),1,13.1,1.79,2067
CG3662,1,3.94,4.39,6527
I-t (inhibitor-t),1,2.34,3.84,6739
CG34382,1,1.5,4.3,6657
CG34382,2,2.37,13.8,6022
TFAM (mitochondrial transcription factor A),1,7.08,9.3,6523
TFAM (mitochondrial transcription factor A),2,7.93,1.75,5677
eEF2 (eukaryotic translation elongation factor 2),1,1.28,3,1715
CG12521,1,2.69,2.39,6309
sphe (spheroide),1,5.39,2.86,6623
trn (tartan),1,0.66,2.1,6180
Esyt2 (Extended synaptotagmin-like protein 2),1,2.2,1.45,6788

Part of the list above, reduced to “infection score, replicate 1”.
Cp36 (Chorion protein 36) #1 = 1.59
Cp36 (Chorion protein 36) #2 = 7.39
CG33299 = 5.21
CG30110 = 2.2
CG13527 = 12.2
Skeletor (retired record) #1 = 5.41
Skeletor (retired record) #2 = 13.2
Coop (Corepressor of Pangolin) #1 = 10.9
Coop (Corepressor of Pangolin) #2 = 2.45
